The subject of this data set is HNF3 (hepatocyte nuclear factor 3). Briefly: EMSA. The note with it: wild type oligomer; GL046732 had no effect; exact oligo not given, core site given; protein in an extract. (Mobility shift assays separate free from complexed probe on a gel.)

For at least one entry, the source does not settle the construct or the ends of the probe. Where cells or extracts were used, other partners may take part.

Turning to “GACTGTTTGTTT (double strand) [HBV core proximal HNF3 wild-type site]”, the binding result is “binds”.

(Values after patent publication US7189506B1, “DNA binding compound-mediated molecular switch system” (Genelabs Technologies, Inc.).)
